Compound potency records, mixed from different reports. Data source: NIAID ChemDB in PubChem.

All rows: growth or infection tests; organism: Aspergillus niger; measure: MIC100

Conditions beyond the fields shown may differ between rows. A number after MIC or MFC names an inhibition level or a share of isolates. An empty or dashed field is not shown.

smiles	strain or isolate	read by	value
CC1/C=C/C=C/C=C/C=C/C(O[C@@H]2O[C@H](C)[C@@H](O)[C@H](N)[C@@H]2O)CC2OC(O)(CC(O)CC(O)C(O)/C=C/C(=O)OC1C)CC(O)C2C(=O)O	CGMCC 3.6478	broth dilution	22.5 µg/mL
O=C1C(Cl)C2(C(=O)Nc3ccccc32)N1c1ccccc1	MTCC 343	-	22 µg/mL
OC(Cn1cncn1)(Cn1cncn1)c1ccc(F)cc1F	MTCC 282	-	6.25 µg/mL
Cc1ccccc1N1C(=O)C(Cl)C12C(=O)Nc1ccccc12	MTCC 343	-	24 µg/mL
CC(=O)N1CCN(c2nc3ccc4c(ccc(=O)n4C)c3s2)CC1	MTCC 282	-	250 µg/mL
CC(=O)Nc1ccc(OCC(=O)N2N=C(c3nc4ccccc4[nH]3)CC2c2cccc(O)c2)cc1	MTCC 282	-	500 µg/mL
COc1ccc(C2=NN(C3=NC(=O)CS3)C(c3cc4ccccc4nc3Cl)C2)cc1	MTCC 282	-	500 µg/mL
Cc1ccc(-c2nc3ccccc3c(=O)n2-c2ccc(C(=O)NN3C(=O)/C(=C/c4ccc(Cl)cc4)SC3c3ccc(F)cc3)cc2)cc1	MTCC 282	-	500 µg/mL
CC(=O)Nc1ccc(S(=O)(=O)N(n2sc3ccc(C)cc3c2=O)S(=O)(=O)c2ccc(NC(C)=O)cc2)cc1	ATCC 6275	-	>100 µg/mL
Cc1ccc(-c2nc3ccccc3c(=O)n2-c2ccc(C(=O)NN3C(=O)/C(=C/c4cccc(O)c4)SC3c3ccc(F)cc3)cc2)cc1	MTCC 282	-	1000 µg/mL
O=C1CSC(N2N=C(c3ccccc3Cl)CC2c2cc3ccccc3nc2Cl)=N1	MTCC 282	-	50 µg/mL
O=C1C(Cl)C2(C(=O)Nc3c(Br)cc(Br)cc32)N1c1ccc([N+](=O)[O-])cc1	MTCC 343	-	23 µg/mL
CC(=O)Nc1ccc(OCC(=O)N2N=C(c3nc4ccccc4[nH]3)CC2c2cccc(C)c2)cc1	MTCC 282	-	1000 µg/mL
COc1ccccc1/C=C1\SC(c2ccc(F)cc2)N(NC(=O)c2ccc(-n3c(-c4ccc(C)cc4)nc4ccccc4c3=O)cc2)C1=O	MTCC 282	-	1000 µg/mL
CC(=O)Nc1ccc(OCC(=O)N2N=C(c3nc4ccccc4[nH]3)CC2c2ccc(Br)cc2)cc1	MTCC 282	-	25 µg/mL
Nc1nc(N)c2c(=O)c3ccccc3oc2n1	MTCC 282	broth dilution	500 µg/mL
CC1/C=C/C=C/C=C/C=C/C(O[C@@H]2O[C@H](C)[C@@H](O)[C@H](N)[C@@H]2O)CC2OC(O)(CC(O)CC(O)C/C=C/C(=O)OC1C)CC(O)C2C(=O)O	CGMCC 3.6478	broth dilution	5.63 µg/mL
Brc1ccc(-c2n[nH]c(COc3ncnc4ccccc34)n2)cc1	MTCC 282	-	25 µg/mL
Nc1[nH]c(=O)nc2oc3ccccc3c(=O)c12	MTCC 282	broth dilution	500 µg/mL
O=C1CSC(N2N=C(c3ccccc3[N+](=O)[O-])CC2c2cc3ccccc3nc2Cl)=N1	MTCC 282	-	100 µg/mL
Cn1c(=O)ccc2c3sc(N4CCN(c5ccccc5)CC4)nc3ccc21	MTCC 282	-	250 µg/mL
Nc1ccc(S(=O)(=O)N(n2sc3ccccc3c2=O)S(=O)(=O)c2ccc(N)cc2)cc1	ATCC 6275	-	>100 µg/mL
O=C1C(Cl)C2(C(=O)Nc3c(Br)cc(Br)cc32)N1c1ccccc1[N+](=O)[O-]	MTCC 343	-	14 µg/mL
Cc1ccc2sn(N(S(=O)(=O)c3ccc(N)cc3)S(=O)(=O)c3ccc(N)cc3)c(=O)c2c1	ATCC 6275	-	>100 µg/mL
CC(=O)Nc1ccc(OCC(=O)N2N=C(c3nc4ccccc4[nH]3)CC2c2ccccc2C)cc1	MTCC 282	-	500 µg/mL
O=c1ccc2c(ccc3nc(N4CCN(c5ccccc5)CC4)sc32)o1	MTCC 282	-	500 µg/mL
CC(=O)Nc1ccc(S(=O)(=O)Nn2sc3ccccc3c2=O)cc1	ATCC 6275	-	>100 µg/mL
Cc1ccc(N2C(=O)C(Cl)C23C(=O)Nc2ccccc23)cc1	MTCC 343	-	22 µg/mL
Nc1nc(N)c2c(=O)c3cc(Br)cc(Br)c3oc2n1	MTCC 282	broth dilution	>1000 µg/mL
O=c1ccc2c(ccc3nc(N4CCN(c5ccc(F)cc5)CC4)sc32)o1	MTCC 282	-	62.5 µg/mL
Cc1nc(OCc2nc(-c3ccc(Br)cc3)n[nH]2)c2ccccc2n1	MTCC 282	-	12.5 µg/mL
Nc1[nH]c(=O)nc2oc3c(Br)cc(Br)cc3c(=O)c12	MTCC 282	broth dilution	1000 µg/mL
O=C1CSC(N2N=C(c3ccc(Cl)cc3)CC2c2cc3ccccc3nc2Cl)=N1	MTCC 282	-	100 µg/mL
COc1ccc(-c2n[nH]c(COc3nc(C(F)(F)F)nc4ccccc34)n2)cc1	MTCC 282	-	25 µg/mL
Cn1c(=O)ccc2c3sc(N4CCN(c5ncccn5)CC4)nc3ccc21	MTCC 282	-	100 µg/mL
Cc1nc(OCc2nc(-c3ccc(F)cc3)n[nH]2)c2ccccc2n1	MTCC 282	-	12.5 µg/mL
Cc1ccc(-c2nc3ccccc3c(=O)n2-c2ccc(C(=O)NN3C(=O)/C(=C/c4ccccc4Br)SC3c3ccc(F)cc3)cc2)cc1	MTCC 282	-	1000 µg/mL

The first 5 rows once more:

smiles	strain or isolate	read by	value
CC1/C=C/C=C/C=C/C=C/C(O[C@@H]2O[C@H](C)[C@@H](O)[C@H](N)[C@@H]2O)CC2OC(O)(CC(O)CC(O)C(O)/C=C/C(=O)OC1C)CC(O)C2C(=O)O	CGMCC 3.6478	broth dilution	22.5 µg/mL
O=C1C(Cl)C2(C(=O)Nc3ccccc32)N1c1ccccc1	MTCC 343	-	22 µg/mL
OC(Cn1cncn1)(Cn1cncn1)c1ccc(F)cc1F	MTCC 282	-	6.25 µg/mL
Cc1ccccc1N1C(=O)C(Cl)C12C(=O)Nc1ccccc12	MTCC 343	-	24 µg/mL
CC(=O)N1CCN(c2nc3ccc4c(ccc(=O)n4C)c3s2)CC1	MTCC 282	-	250 µg/mL